A mixed list of measured activities; the numbers were collected in NIAID ChemDB.

All rows: growth or infection tests; agent: Candida albicans; measure: MIC

Rows are shuffled and stem from different studies. Blank or dashed fields: not listed here.

smiles,strain or isolate,method,value
CCCCC/C=C/CCC(=O)[C@H]1O[C@H]1C(=O)NCc1ccccc1,G2-sensitive,,6.25 µg/mL
NNc1n[nH]c(=O)c2[nH]c3ccccc3c12,,broth dilution,250 µg/mL
Oc1ccc(Cl)cc1N=Cc1cc(Cl)cc(Cl)c1O,ATCC 10231,broth dilution,3.9 µg/mL
COc1ccc2[nH]c(=O)c(C(C)C)nc2c1Cl,,,>200 µM
CC(C)C(=N)CCC=C1CO[C@@](Cn2ccnc2)(c2ccc(F)cc2F)C1,IFO. 1385,,1.56 µg/mL
COC1CC2CCC(C)C(O)(O2)C(=O)C(=O)N2CCCC2C(=O)OC(C(C)CC2CCC(O)C(OC)C2)CC(=O)C(C)/C=C(\C)C(O)C(OC)C(=O)C(C)CC(C)/C=C/C=C/C=C/1C,ATCC11651,,0.3125 µg/mL
C[C@@H](n1cnc2cc(NC(=O)C(F)(F)F)c(F)cc2c1=O)[C@](O)(Cn1cncn1)c1ccc(F)cc1F,406 strains,,5 µg/mL
CCCCCCCCCCCCCCCCCC(=O)NC1CC(O)C(O)NC(=O)C2C(O)C(C)CN2C(=O)C(C(C)O)NC(=O)C(C(O)C(O)c2ccc(O)cc2)NC(=O)C2CC(O)CN2C(=O)C(C(C)O)NC1=O,MY1055,,0.5 µg/mL
O=c1[nH]c2ccc(Cl)cc2nc1C(F)(F)F,,,>200 µM
CCOC(=O)c1c(C#N)c2ccccc2n1C,,broth dilution,250 µg/mL
CC[C@H]1OC(=O)C[C@@H](O)[C@H](C)[C@@H](OC2OC(C)C(O)C(N(C)C)C2O)[C@@H](CCN2CC(C)CC(C)C2)C[C@@H](C)C(=O)/C=C/C=C/[C@@H]1CNN1CC(C)CC(C)C1,,,0.312 µg/mL
CCOC(=O)c1c(/C=N\O)c2ccccc2n1C,,broth dilution,250 µg/mL
CC(/C=C/C=C(\C)C(O)C(C)C(=O)O[C@H]1C[C@@H](C)C=C2C=C[C@]3(C)O[C@@H](O)CC(=O)[C@]3(C)[C@H]21)=C\C=C\C(=O)O,AC3410,,0.78 µg/mL
Oc1ccccc1C=Nc1cc(Cl)ccc1O,ATCC 10231,broth dilution,39 µg/mL
CCCC(O)C/C=C\C=C\C(=O)OC[C@H]1O[C@@H](O[C@@H]2[C@H](OC(=O)/C=C/C=C/CC(O)/C(C)=C/C=C/CCC(C)CC)[C@@H](O)[C@]3(OCc4cc(O)cc(O)c43)O[C@@H]2CO)[C@H](O)[C@@H](O)[C@H]1O,MY1750,,1 µg/mL
CS(C)=O,SC5314,,6.25 µg/mL
Cc1nn(C(=S)Nc2ccc(Cl)cc2)c(=O)c2c(C)noc12,ATCC 10231,broth dilution,50 µg/mL
C[C@@H](n1cnc2c(Cl)cccc2c1=O)[C@](O)(Cn1cncn1)c1ccc(F)cc1F,76 strains,,10 µg/mL
Nc1cccc2nc(CBr)c(=O)[nH]c12,,,>200 µM
CC[C@H]1OC(=O)C[C@@H](O)[C@H](C)[C@@H](OC2OC(C)C(O)C(N(C)C)C2O)[C@@H](CCN2CC(C)CC(C)C2)C[C@@H](C)C(=O)/C=C/C=C/[C@@H]1CI,,,2.5 µg/mL
COc1cc(O)c2c(c1)C(=O)c1c(cc3c(c1O)-c1c(cc(C)c(C(=O)NC(CO)C(=O)O)c1O)[C@H](OC1OC(C)C(O)C(OC4OCC(O)C(O)C4O)C1O)C3O)C2=O,A25941 (amphotericin B-resistant),,4 µg/mL
C[C@@H](n1cnc2cc(N(C)C)c(F)cc2c1=O)[C@](O)(Cn1cncn1)c1ccc(F)cc1F,406 strains,,≤0.03 µg/mL
CCOC(=O)c1cc2ccccc2n1C,,broth dilution,250 µg/mL
Cc1nc2c(=O)n(C(=S)Nc3ccc(Cl)cc3)nc(C)c2s1,ATCC 10231,broth dilution,50 µg/mL
CO[C@H]1C[C@@H]2CC[C@@H](C)[C@@](O)(O2)C(=O)C(=O)N2CCCC[C@H]2C(=O)O[C@H]([C@H](C)C[C@@H]2CC[C@@H](O)[C@H](OC)C2)CC(=O)[C@H](C)/C=C(\C)[C@@H](O)[C@@H](OC)C(=O)[C@H](C)C[C@H](C)/C=C/C=C/C=C/1C,ATCC11651,,0.1 µg/mL
CCn1c2ccccc2c2cnn(-c3ccc(Br)cc3)c(=O)c21,,broth dilution,250 µg/mL
Cc1nc2c(=O)n(-c3ccc(S(=O)(=O)NC(=O)Nc4ccc(Cl)cc4)cc3)nc(C)c2s1,ATCC 10231,broth dilution,50 µg/mL
O=c1cnc2ccc(Cl)cc2[nH]1,,,>200 µM
COc1ccc2c(Cc3ccc(C(C)(C)C)cc3)c3[n+](cc2c1OC)CCc1cc2c(cc1-3)OCO2,ATCC200955,,1.56 µg/mL
Cc1nn(-c2ccc(S(=O)(=O)NC(=S)NC(=O)c3ccccc3)cc2)c(=O)c2c(C)noc12,ATCC 10231,broth dilution,≥200 µg/mL
CCCCCCCCC(=O)[C@H]1O[C@H]1C(=O)N(CC)CC,F2 sensitive,,6.25 µg/mL
CC(C)C(=N)CCC[C@H]1CO[C@@](Cn2ccnc2)(c2ccc(F)cc2F)C1,B02630,,>100 µg/mL
CC(C)C1=C[C@H]2C[C@]3(C=O)[C@@H]4CC[C@@H](C)[C@H]4C[C@@]2(CO[C@H]2C[C@@H]4OC(C)(C)O[C@@H]4[C@@H](C)O2)[C@]13C(=O)O,Isolate CL-245 (fluconazole-resistant),,<0.01 µg/mL
Oc1ccc(Cl)cc1N=Cc1cc(Cl)cc(Br)c1O,ATCC 10231,broth dilution,19.5 µg/mL
CC(C)C(=O)CCC[C@@H]1CO[C@@](Cn2cccc2)(c2ccc(F)cc2F)C1,B02630,,>100 µg/mL
C[C@@H](n1cnc2cc(Oc3ccc(Cl)cc3)ccc2c1=O)[C@](O)(Cn1cncn1)c1ccc(F)cc1F,406 strains,,≤0.03 µg/mL
CC[C@H]1OC(=O)C[C@@H](O)[C@H](C)[C@@H](OC2OC(C)C(O)C(N(C)C)C2O)[C@@H](CCN2CC(C)CC(C)C2)C[C@@H](C)C(=O)/C=C/C=C/[C@@H]1COc1ccccc1,,,1.25 µg/mL
CC(C)c1nc2c(N)cc(C(C)(C)C)cc2[nH]c1=O,,,>200 µM
Oc1ccc(Cl)cc1N=Cc1cccc(O)c1O,ATCC 10231,broth dilution,19.5 µg/mL
CC(C)C(=O)CCC[C@@H]1CO[C@@](Cn2ccnc2)(c2ccc(F)cc2F)C1,A.10231,,25 µg/mL
Cc1nc2cc(Cl)ccc2c(=O)n1[C@H](C)[C@](O)(Cn1cncn1)c1ccc(F)cc1F,60 strains,,0.15 µg/mL
CC[C@H]1OC(=O)C[C@@H](O)[C@H](C)[C@@H](OC2OC(C)C(O)C(N(C)C)C2O)[C@@H](CCN2CC(C)CC(C)C2)C[C@@H](C)C(=O)/C=C/C=C/[C@@H]1COS(=O)(=O)c1ccccc1,,,1.25 µg/mL
C[C@@H](n1cnc2cc(OCC(F)(F)F)ccc2c1=O)[C@](O)(Cn1cncn1)c1ccc(F)cc1F,76 strains,,0.31 µg/mL
Cc1nc2c(=O)n(C(=O)Nc3ccc(Cl)cc3)nc(C)c2s1,ATCC 10231,broth dilution,≥200 µg/mL